Substitutions are numbered along the chain they refer to. Human monoclonal antibodies against the spike receptor-binding domain (heavy:light variable regions). IC50 against pseudoviruses bearing the spike of naturally observed variants; lower = stronger; >10 µg/ml means not reached at the top dose. No active / inactive call. The stated detection limit is 0.0005 µg/ml; values near or below 0.001 µg/ml lie at the floor of the assay.
B1: BD57-0129 (protein)
chain 1: EVHLVQSGGNLVQPGGSLRLSCVASEITVSSNYMSWVRQAPGKGLEWVSVIYSGGSTFYADSVKGRFIISRDNSKNTLYLEMNNVRVEDTAVYYCARDLGPLGGNDYWGQGTLVTVSS
chain 2: EIVMTQSPATLSVSPGERATLSCRASQSVSNNLAWYQQKPGQAPRLLIYGASTRATGIPARFSGSGSETEFTLNISSLQSEDFAVYYCQQYITWPPMYTFGQGTKLEIK
B2: BD57-0120 (protein)
chain 1: EVQLVESGGGLVQPGGSLRLSCAASGFTFSNYDLHWLRQETGKSLEWVSLIGTAGDTYYADSVKGRFTISRQNAKNSLDLQMDSLRVEDTAVYYCARVSHIVVGGPGQRTNFHYYLDVWGKGTTVTVSS
chain 2: DIQMTQSPSSLSASVGDRVTITCRASQSISSHLNWYQQKPGKAPKLLMYAASNLQSGVPSRFSGTGFGTEFTLTISSLQPEDFAIYYCQQTYTSPSYTFGQGTKLEIK
B3: BD57-0121 (protein)
chain 1: EVQLVESGGGLVQPGGSLRLSCAASGFTFSNYEVNWVRQAPGKGLEWVSYIGTRGSAIYYADSVKGRFTISRDNAKNSLYLQMNSLRAEDTAVYYCASHRRYYFGPYAGLNYGMDVWGQGTTVTVSS
chain 2: DIQMTQSPSSVSASVGDRVTITCRASQGISTWLAWYQQKPGKAPKLMIYDASSLQSGVPSRFSGSGSGTDFTLTISSLQPEDFATYYCQQADSFPLTFGGGTKVEIK
B4: BD57-0126 (protein)
chain 1: QVQLVQSGAEVKKPGSSVKVSCKASGGTFSSSVINWVRQAPGQGLEWMGRIIPTLRIANYAQNFQARVTITADKSTNTAYMELSSLTSEDTAMYYCATEGNHYDSSGLNSEYFQKWGQGTLVSVSS
chain 2: QSVLTQPPSVSGAPGQRVTISCTGSNSNIGAGYDVHWYQQFPRIAPKLIIYGNSNRPSGVPDRFSGSKSGTSASLAITGLQAEDEADYYCQSYDSSLIGVVFGGGTKLTVL
B5: BD57-0128 (protein)
chain 1: QVQLLQSGTEVKKPGSSVKVSCKASGGTFNSYSITWVRQSPGLGLEWMGRIIPILRIPDYAQKFQGRVTITADKSTSTAYMELSSLRSEDTAIYYCATAAGYTNYGANYYFDYWGQGTLVTVSS
chain 2: B4 chain 2 with S25G, N26S, R43G, I44T, K47R, I49L, G52A, S54T, I98S, V100S
B6: BD57-0133 (protein)
chain 1: QVHLQQWGAGLLKPSESLSLTCAVDGGSFNSYSWSWIRQPPGKGLEWIGDINRRGSTSYNPSLKSRLTISVDSSKNHCSLNLNAVTAADTAVYFCARGRYYLDSSDFGSNWFDPWGQGTLVTVSS
chain 2: QSMLTQPPSVSGAPGQRVTISCTGSSSNIGAGYDVHWYQLLPGRAPKLLIHGNSNRPSGVPDRFSGSKSGTSASLAITGLQAEDEADYYCQSYDTSLSVYVFGPGTKVTVL

The binders below were run against SARS-CoV-2 Omicron BA.1 spike pseudovirus (assay: pseudovirus neutralization IC50; higher = weaker neutralization).
Experimental: (§1)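 Single-round VSV luciferase pseudovirus mixed with antibody dilutions for 1 h and put on Huh-7 cells for about a day; IC50 from the dose curve.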

Binder	pseudovirus neutralization IC50 [µg/mL]
B1	0.00276
B2	2.28
B3	> 10
B4	0.306
B5	0.712
B6	5.64

Each binder was assayed against SARS-CoV-2 Omicron BA.2 spike pseudovirus in the same assay as above.
Experimental: as §1

Binder	pseudovirus neutralization IC50 [µg/mL]
B1	0.0029
B2	5.45
B3	> 10
B4	0.285
B5	0.519
B6	3.45

The binders below were run against SARS-CoV-2 Omicron BA.2.75 spike pseudovirus in the same assay as above.
Experimental: as §1

Binder	pseudovirus neutralization IC50 [µg/mL]
B1	0.0034
B2	3.12
B3	> 10
B4	0.155
B5	0.83
B6	7.21

The binders below were run against SARS-CoV-2 Omicron BA.5 spike pseudovirus in the same assay as above.
Experimental: as §1

Binder	pseudovirus neutralization IC50 [µg/mL]
B1	0.00289
B2	2.77
B3	> 10
B4	2.38
B5	3.35
B6	3.26

What follows are binders tested against SARS-CoV-2 Omicron BQ.1.1 spike pseudovirus in the same assay as above.
Experimental: as §1

Binder	pseudovirus neutralization IC50 [µg/mL]
B1	0.00751
B2	1.55
B3	> 10
B4	> 10
B5	> 10
B6	> 10

These binders were tested against SARS-CoV-2 Omicron XBB spike pseudovirus in the same assay as above.
Experimental: as §1

Binder	pseudovirus neutralization IC50 [µg/mL]
B1	0.0064
B2	3.43
B3	> 10
B4	> 10
B5	> 10
B6	> 10

The binders below were run against SARS-CoV-2 early D614G spike pseudovirus in the same assay as above.
Experimental: as §1

Binder	pseudovirus neutralization IC50 [µg/mL]
B1	0.00572
B2	4.44
B3	> 10
B4	0.343
B5	1.33
B6	> 10
